This series deals with Caco-2 monolayers. The experiment in a line: Intestinal permeability in-vitro, Caco-2 model. The class given is in vitro ADME. The following applies: apical to basolateral; markers testosterone and mannitol.

For `N=C(N)NCCCC1NC(=O)NCCCCC(=O)NC(Cc2ccccc2)CN(CC(N)=O)C1=O` (stereo not shown), the “permeability coefficient (Papp) in Caco-2 model (in words)” value was “better Papp values than testosterone”.

Source of the values: patent publication US20120270774A1, “MACROCYCLIC COMPOUNDS, COMPOSITIONS COMPRISING THEM AND METHODS FOR PREVENTING OR TREATING HIV INFECTION” (Yissum Research Development Company of the Hebrew …, priority 2009, published 2012).
